Measured values taken from patent US6506381B1, “Modified red blood cell that has surface molecules that neutralize chemical agents” (dated 2003).

Test system: S. aureus
Experiment: killing of bacteria by addition of hemin
Details: oxygen required

Question: Which killing of bacteria does the source give for hemin here?
Answer: has been demonstrated
